Anti-infective test results gathered from many reports (values: NIAID ChemDB through PubChem).

Shared fields: target-level tests; species: HIV-1; target: Protease

Fold resistance: result on the changed form divided by that on wild type.

SMILES | read by | changes | read-out | tested at | value
CCCCCCNC(=O)[C@@H]1O[C@@H]2CN(Cc3ccccc3)C(=O)[C@H]1O2 | FRET | - | inhibition | 10 µM | 0%
CC[C@H](C)[C@H](NC(=O)[C@@H]1CCCN1C(=O)[C@H](O)[C@H](Cc1ccccc1)NC(=O)[C@H](CC(N)=O)NC(=O)CCc1ccccc1)C(=O)N[C@H](C(N)=O)C(C)C | - | - | inhibition | 1000 µM | 98.5%
O=C(CCC(O)CCC(=O)N[C@@H](Cc1ccccc1)C(=O)OCc1ccccc1)N[C@@H](Cc1ccccc1)C(=O)OCc1ccccc1 | absorbance | - | inhibition | 10 µM | <10%
CCOC(=O)N1CCN(C(=O)[C@@H]2O[C@@H]3CN(Cc4ccccc4)C(=S)[C@H]2O3)CC1 | FRET | - | inhibition | 10 µM | 0%
NC(=O)C[C@H](NC(=O)OCc1ccccc1)C(=O)N[C@@H](Cc1ccccc1)[C@H](O)C(=O)N1CCC[C@H]1C(N)=O | - | - | inhibition | 0.05 µM | 25.8%
COC(=O)[C@H](OC(=O)[C@H](Cc1ccccc1)NC(=O)C(=O)N[C@@H](Cc1ccccc1)C(=O)O[C@@H](C(=O)OC)C(C)C)C(C)C | absorbance | - | inhibition | 10 µM | <10%
CC(C)C[C@H](NC(=O)CCCCCCCCCCCCCCC(=O)N[C@@H](CC(N)=O)C(=O)N[C@@H](Cc1ccccc1)C(=O)O)C(=O)N[C@@H](CC(C)C)C(=O)N[C@@H](Cc1ccccc1)C(N)=O | - | - | Ki | - | 0.37 µM
CC(C)(C)NC(=O)[C@H]1N(C(=O)[C@@H](O)[C@H](Cc2ccccc2)NC(=O)[C@H](CC(N)=O)NC(=O)COc2cccc3cccnc23)CSC1(C)C | - | - | inhibition | 0.05 µM | 55.9%
COC(=O)[C@@H](CC(C)C)N1C[C@@H]2O[C@H](C(=O)N3CCCCC3)[C@@H](O2)C1=O | FRET | - | inhibition | 10 µM | 0%
CC(C)C[C@H](NC(=O)[C@@H](NC(=O)CCCCCCCCCCCCCCC(=O)N[C@@H](CC(N)=O)C(=O)N[C@@H](Cc1ccccc1)C(=O)O)C(C)O)C(=O)N[C@@H](Cc1cc(I)c(Oc2cc(I)c(O)c(I)c2)c(I)c1)C(N)=O | - | PR-L10I K45R I54V L63P A71V V82T L90M I93L | fold resistance | - | ~1
CC(C)[C@H](NC(=O)COc1cccnc1)C(=O)N[C@@H](Cc1ccccc1)[C@H](O)C(=O)N1CSC[C@H]1C(=O)NC(C)(C)C | - | - | inhibition | 0.05 µM | 52.8%
CC(C)C[C@H](NC(=O)[C@@H](NC(=O)CCCCCCCCCCCCCCC(=O)N[C@@H](CC(N)=O)C(=O)N[C@@H](Cc1ccccc1)C(=O)O)C(C)O)C(=O)N[C@H](C(N)=O)C1CCCCC1 | - | PR-L10I K45R I54V L63P A71V V82T L90M I93L | fold resistance | - | ~1
COC(=O)[C@@H](NC(=O)[C@H](Cc1ccccc1)NC(=O)N[C@@H](Cc1ccccc1)C(=O)N[C@H](C(=O)OC)C(C)C)C(C)C | absorbance | - | inhibition | 10 µM | <10%
CC(C)C[C@H](NC(=O)[C@H](Cc1ccccc1)NC(=O)CCCCCCCCCCCCCCC(=O)N[C@@H](CC(N)=O)C(=O)N[C@@H](Cc1ccccc1)C(=O)O)C(=O)N[C@@H](Cc1ccccc1)C(N)=O | - | PR-L10I K45R I54V L63P A71V V82T L90M I93L | fold resistance | - | ~1.25
CC[C@@H](C)[C@H](NC(=O)[C@@H]1CCCN1C(=O)[C@@H](O)[C@H](Cc1ccccc1)NC(=O)[C@H](CC(N)=O)NC(=O)OC(C)(C)C)C(=O)NCC(C)C | - | - | inhibition | 5 µM | 14.7%
CC(C)C[C@H](NC(=O)[C@@H](NC(=O)CCCCCCCCCCCCCCC(=O)N[C@@H](CC(N)=O)C(=O)N[C@@H](Cc1ccccc1)C(=O)O)C(C)C)C(=O)N[C@@H](Cc1ccccc1)C(N)=O | - | - | Ki | - | 0.89 µM
CC(C)COC(=O)C(Cc1ccc(F)cc1)NC(=O)C(=O)NC(Cc1ccc(F)cc1)C(=O)OCC(C)C | absorbance | - | inhibition | 10 µM | 30%
CC[C@H](C)[C@H](NC(=O)[C@@H]1CCCN1C(=O)[C@H](O)[C@H](CC1CCCCC1)NC(=O)[C@H](CC(N)=O)NC(=O)CCc1ccccc1)C(=O)N[C@H](C(N)=O)C(C)C | - | - | IC50 | - | >5 µM
COC(=O)[C@@H](CC(C)C)N1C[C@@H]2O[C@H](C1=O)[C@H](C(=O)N1CCCCC1)O2 | FRET | - | inhibition | 10 µM | 0%

The first 2 rows once more:

SMILES	read by	changes	read-out	tested at	value
CCCCCCNC(=O)[C@@H]1O[C@@H]2CN(Cc3ccccc3)C(=O)[C@H]1O2	FRET	-	inhibition	10 µM	0%
CC[C@H](C)[C@H](NC(=O)[C@@H]1CCCN1C(=O)[C@H](O)[C@H](Cc1ccccc1)NC(=O)[C@H](CC(N)=O)NC(=O)CCc1ccccc1)C(=O)N[C@H](C(N)=O)C(C)C	-	-	inhibition	1000 µM	98.5%

Percent inhibition refers to the dose given; in toxicity tests it is the harm to the cells. ICn is the concentration giving n% inhibition. Lines come from different laboratories, so protocols vary. Blank or dashed fields: not listed here.